The source of these data is publication PMC8000184, “Structural Insights into a Bifunctional Peptide Methionine Sulfoxide Reductase MsrA/B Fusion Protein from Helicobacter pylori” (Antioxidants, 2021).

In data set [1] the test system is CN(C)c1ccc(N=Nc2ccc(S(=O)(=O)N[C@@H](CC[S@+](C)[O-])C(=O)O)cc2)cc1. Kind of data set: purified protein. The note with it: 20 mM DTT, 50 mM sodium phosphate pH 7.5, 50 mM NaCl, 37 °C.
Data set [2] relates to CN(C)c1ccc(N=Nc2ccc(S(=O)(=O)N[C@@H](CC[S@@+](C)[O-])C(=O)O)cc2)cc1. Kind of data set: purified protein. The note with it: 20 mM DTT, 50 mM sodium phosphate pH 7.5, 50 mM NaCl, 37 °C.

For the substance “HpMsrAB (WT) (Helicobacter pylori 26695; D197A)”, in data set [1], the Km (as a rule, the substrate concentration at which the rate is half of its maximum) came out at 150 ± 40 µM; the kcat (commonly the number of substrate molecules converted per active site and unit of time at saturation) is 0.102 s⁻¹; the catalytic efficiency (kcat/Km) (in general, the second-order rate constant that governs catalysis at low substrate concentration) was 683 M⁻¹ s⁻¹. In addition, in data set [2], the Km stood at 60 ± 20 µM, the kcat came out at 0.0733 s⁻¹ and the kcat/Km is 1220 M⁻¹ s⁻¹.

For the substance “HpMsrAB (WT) (Helicobacter pylori 26695; D197A/E193A)”, in data set [1], the Km was 120 ± 50 µM, the kcat is 0.095 s⁻¹ and the kcat/Km was 783 M⁻¹ s⁻¹. In data set [2], the Km turned out to be 50 ± 20 µM, the kcat was 0.05 s⁻¹ and the kcat/Km is 1000 M⁻¹ s⁻¹.

Turning to “HpMsrAB (WT) (Helicobacter pylori 26695; E193A)”, in data set [1], the Michaelis constant (Km) was 140 ± 60 µM, the kcat is 0.108 s⁻¹ and the kcat/Km is 767 M⁻¹ s⁻¹. Moreover, in data set [2], the Km is 60 ± 20 µM, the kcat was found to be 0.0783 s⁻¹ and the kcat/Km is 1300 M⁻¹ s⁻¹.

As to “HpMsrAB (WT) (Helicobacter pylori 26695; E339A)”, in data set [1], the Michaelis-Menten constant (Km) amounted to 40 ± 10 µM, the kcat came out at 0.0583 s⁻¹ and the kcat/Km is 1470 M⁻¹ s⁻¹. Also, in data set [2], the Michaelis-Menten constant (Km) came out at 20 ± 10 µM, the kcat was 0.045 s⁻¹ and the specificity constant (kcat/Km) was 2250 M⁻¹ s⁻¹.

Turning to “HpMsrAB (WT) (Helicobacter pylori 26695; Y343F)”, in data set [1], the Km worked out at 120 ± 20 µM, the kcat came out at 0.0967 s⁻¹ and the kcat/Km was 800 M⁻¹ s⁻¹. Besides, in data set [2], the Km came out at 30 ± 20 µM, the kcat came to 0.0867 s⁻¹ and the kcat/Km worked out at 2880 M⁻¹ s⁻¹.
